Compound potency records, mixed from different reports. Data source: NIAID ChemDB in PubChem.

Common to all: toxicity to cultured cells; cell line: MT-4; endpoint: CC50

CCn is the concentration with n% toxicity to the cells. An empty or dashed field is not shown. Rows are shuffled and stem from different studies.

SMILES	read by	value
CNNC(=O)c1cn(Cc2ccncc2)c(Sc2ccccc2)c1C(C)C	MTT	>200 µM
Nc1ncnc2c1nnn2CCOCP(=O)(O)O	-	>366 µM
CC1CCCCN1CCCCNCc1ccc(CNCCCCN2CCCCC2C)cc1	MTT	>56.47 µM
Nc1nc2nn(CCOCP(=O)(O)O)nc2c(=O)[nH]1	-	>315 µM
CCC(C)Oc1cc(=O)[nH]c(S(=O)(=O)c2cccc(C)c2)n1	-	70 µM
Cc1nc(N)nc2c1ncn2[C@H]1C[C@H](N=[N+]=[N-])[C@@H](CO)O1	-	>200 µM
Cn1ncc2c1S(=O)(=O)N(Cc1cccc(Cl)c1)C(=O)N2Cc1ccc(Br)cc1	MTT	>252.3 µM
CCC(C)Oc1cc(N)nc(Sc2ccccc2C)n1	-	99 µM
CCOC(=O)c1cn(Cc2ccncc2)c(Sc2cc(Cl)cc(Cl)c2)c1C1CCC1	MTT	80 µM
CCC(C)Oc1cc(=O)[nH]c(Sc2ccccc2C)n1	-	125 µM
CCNC(N)=NCCCNc1ccc2[nH]ccc2c1	MTT	52.67 µM
O=C1CSC(c2c(Cl)cccc2Cl)N1C1CCCCC1	-	5.25 µM
COc1ccc(Sc2nc(Cc3c(Cl)cccc3Cl)c(C)c(=O)[nH]2)cn1	MTT	>61.3 µM
COC1=C(OC)/C(=C/COP(=O)(O)OCC2OC(n3cnc4c(N)ncnc43)C(O)C2OP(=O)(O)COCCn2cnc3ncnc(N)c32)OC1=O	-	>300 µg/mL
COc1ccc2c(Cc3c[nH]c4ccc(Br)cc34)c(OC(C)=O)ccc2c1	-	19 µM
C1CNCCCNCCNCCCNC1	-	>100 µM
O=C(Cc1ccc(CC(=O)NCCCN2CCCC2)cc1)NCCCN1CCCC1	MTT	>156 µM
[N-]=[N+]=N[C@H]1C[C@H](n2cnc3c(NC4CC4c4ccccc4)nc(N)nc32)O[C@@H]1CO	-	>80 µM
CC(=O)Oc1ccc2ccccc2c1Cc1c(-c2ccccc2)[nH]c2ccccc12	-	19 µM
CC(C)Oc1nc(N)nc2c1ncn2[C@H]1C[C@H](N=[N+]=[N-])[C@@H](CO)O1	-	~200 µM
c1cc2cc(NCCCNC3=NCCN3)ccc2[nH]1	MTT	166 µM
CCN(C)c1nc(N)nc2c1ncn2[C@H]1C[C@H](N=[N+]=[N-])[C@@H](CO)O1	-	>200 µM
CC1CCCCN1CCCNCc1ccc(CC(=O)NCCCN2CCCCC2)cc1	MTT	>58.32 µM
O=[N+]([O-])c1ccc(/C=N/c2nc3ccc(F)cc3s2)cc1	MTT	≥100 µM
C[C@@]1(CO)CC[C@H](c2c[nH]c3c(N)ncnc23)C1	-	>100 µM
CC(C)c1c(C(=O)O)cn(Cc2ccncc2)c1Sc1ccccc1	MTT	190 µM
CC1CCCCN1CCCNCc1ccc(CNCCCN2CCCCC2C)cc1	MTT	>60.3 µM
Cc1c(Cc2c(F)cccc2F)nc(Sc2ccc(Cl)cc2)[nH]c1=O	MTT	>66.1 µM
C#CCN1C(=O)N(Cc2ccccc2)S(=O)(=O)c2cscc21	-	157 µM
Cc1c(Cc2c(Cl)cccc2Cl)nc(Sc2ccc(F)cc2F)[nH]c1=O	MTT	>60.5 µM
COc1ccc2ccc(OC(C)=O)c(Cc3c(C)[nH]c4ccccc34)c2c1	-	48 µM
Cc1cccc2nc3n(c12)C(c1c(F)cccc1Cl)SC3	-	25.7 µM
Cc1cn([C@H]2C[C@H](N=[N+]=[N-])[C@@H](CO)O2)c(=O)[nH]c1=O	MTT	3.7 µM
CCC(C)Oc1cc(=O)[nH]c(Sc2cccc(OC)c2)n1	-	>300 µM
Fc1ccc2nc(/N=C/c3cccc(Cl)c3)sc2c1	MTT	>100 µM
O=C(OCc1ccccc1)N(CCCCCN1CCCN(CCCCCN(Cc2ccccc2)C(=O)OCc2ccccc2)CCCN(CCCCCN(Cc2ccccc2)C(=O)OCc2ccccc2)CCN(CCCCCN(Cc2ccccc2)C(=O)OCc2ccccc2)CCC1)Cc1ccccc1	-	1 µM
Cc1cn([C@H]2C[C@H](N=[N+]=[N-])[C@@H](CO)O2)c(=O)[nH]c1=O	-	27 µM
COc1ccc(C=Nc2nsc3ccc(C)cc23)cc1	MTT	5 µM
Cn1ncc2c1S(=O)(=O)N(Cc1cccc(Cl)c1)C(=O)N2	MTT	231.6 µM
O=C1CCSC(c2c(Cl)cccc2Cl)N1Cc1ccco1	-	72.72 µM
N#CCN1C(=O)N(Cc2cccc(F)c2)S(=O)(=O)c2cscc21	MTT	>340 µM
NC(=NCCNc1ccc2[nH]ccc2c1)N[N+](=O)[O-]	MTT	≥400 µM
Cc1nc(N2C(=O)CSC2c2c(Cl)cccc2Cl)ccc1Br	-	26.28 µM
COc1c(C)c2c(c(O)c1C/C=C(\C)CCC(=O)O)C(=O)OC2	-	0.2 µM
N#CCN1C(=O)N(Cc2cccc(Cl)c2)S(=O)(=O)c2cscc21	MTT	>119 µM
O=c1[nH]cnc2c1ncn2[C@H]1CC[C@@H](CO)O1	-	1114 µM
N#CCN1C(=O)N(Cc2cccc(F)c2)S(=O)(=O)c2cscc21	-	129 µM
c1cc2cc(NCCCNC3=NCCCN3)ccc2[nH]1	MTT	167 µM
[N-]=[N+]=N[C@H]1C[C@H](n2cnc3c(NC4CC4)nc(N)nc32)O[C@@H]1CO	-	<200 µM
COc1ccc2nc3n(c2c1)C(c1c(F)cccc1Cl)SC3	-	>373 µM
[N-]=[N+]=N[C@H]1C[C@H](n2cnc3c(Oc4ccccc4)nc(N)nc32)O[C@@H]1CO	-	~200 µM
c1cn(CCCNCc2ccc(CNCCCn3ccnc3)cc2)cn1	MTT	168.8 µM
OCc1cn(Cc2ccncc2)c(Sc2cc(Cl)cc(Cl)c2)c1C1CCC1	MTT	94.6 µM
Fc1ccc2c(c1)nc1n2C(c2c(F)cccc2F)SC1	-	35.9 µM
Cc1c(Cc2c(Cl)cccc2Cl)nc(Sc2ccc(C#N)cc2)[nH]c1=O	MTT	27.6 µM
Cn1ncc2c1S(=O)(=O)N(Cc1cccc(Cl)c1)C(=O)N2Cc1cccc(Cl)c1	MTT	>277.2 µM
Cc1ccc(CN2C(=O)CSC2c2c(F)cccc2Cl)o1	-	46.9 µM
NC(=NCCCCNc1ccc2[nH]ccc2c1)N[N+](=O)[O-]	MTT	>431 µM
Clc1cccc(/C=N/c2nccs2)c1	MTT	>100 µM
CCCCOc1nc(N)nc2c1ncn2[C@H]1C[C@H](N=[N+]=[N-])[C@@H](CO)O1	-	<200 µM
Fc1cccc(F)c1C1SCc2nc3ccc(C(F)(F)F)cc3n21	-	>351 µM
O=C(Cc1ccc(CC(=O)NCCCn2ccnc2)cc1)NCCCn1ccnc1	MTT	>306 µM
CC(C)c1c(C(=O)O)cn(Cc2ccncc2)c1Sc1cc(Cl)cc(Cl)c1	MTT	>200 µM
CCC1(c2ccccc2)Oc2ccccc2-n2cccc2C1=O	-	2.9 µM
c1cc(CN2CCCNCCNCCCNCC2)ccc1CN1CCCNCCNCCCNCC1	MTT	>20 µM
CC(=O)OCc1cn(Cc2ccncc2)c(Sc2ccccc2)c1C(C)C	MTT	>200 µM
C[C@@H]1[C@H](O)[C@@H](CO)O[C@H]1n1ccc(N)nc1=O	-	≥100 µM
CC(=O)c1cn(Cc2ccncc2)c(Sc2cc(Cl)cc(Cl)c2)c1C(C)C	MTT	>200 µM
CCCCSc1nc(N)cc(Nc2cccc3ccccc23)n1	-	39 µM
c1ccc(CNCCCCCN2CCCN(CCCCCNCc3ccccc3)CCN(CCCCCNCc3ccccc3)CCCN(CCCCCNCc3ccccc3)CC2)cc1	-	>10 µM
Fc1cccc(Cl)c1C1SCc2nc3ccc(C(F)(F)F)cc3n21	-	15 µM
CCC(C)Oc1cc(N)nc(S(=O)(=O)c2cccc(Cl)c2)n1	-	80 µM
Cc1cn([C@H]2C[C@H](N=[N+]=[N-])[C@@H](CO)O2)c(=O)[nH]c1=O	-	>0.004 µM
N#CCN1C(=O)N(Cc2ccccc2)S(=O)(=O)c2cscc21	-	504 µM
Nc1ncnc2nn(CCOCP(=O)(O)O)nc12	-	>365 µM
Cc1ccc2snc(N=Cc3ccccc3O)c2c1	MTT	7 µM
O=C(NCCCCCN1CCCN(CCCCCNC(=O)OCc2ccccc2)CCCN(CCCCCNC(=O)OCc2ccccc2)CCN(CCCCCNC(=O)OCc2ccccc2)CCC1)OCc1ccccc1	-	1 µM
CONC(=O)c1cn(Cc2ccncc2)c(Sc2ccccc2)c1C(C)C	MTT	>200 µM
CN=C(N)NCCCNc1ccc2[nH]ccc2c1	MTT	144 µM
COc1ccc2c(c1)nc1n2C(c2c(F)cccc2Cl)SC1	-	1.8 µM

The first 12 rows once more:

SMILES | read by | value
CNNC(=O)c1cn(Cc2ccncc2)c(Sc2ccccc2)c1C(C)C | MTT | >200 µM
Nc1ncnc2c1nnn2CCOCP(=O)(O)O | - | >366 µM
CC1CCCCN1CCCCNCc1ccc(CNCCCCN2CCCCC2C)cc1 | MTT | >56.47 µM
Nc1nc2nn(CCOCP(=O)(O)O)nc2c(=O)[nH]1 | - | >315 µM
CCC(C)Oc1cc(=O)[nH]c(S(=O)(=O)c2cccc(C)c2)n1 | - | 70 µM
Cc1nc(N)nc2c1ncn2[C@H]1C[C@H](N=[N+]=[N-])[C@@H](CO)O1 | - | >200 µM
Cn1ncc2c1S(=O)(=O)N(Cc1cccc(Cl)c1)C(=O)N2Cc1ccc(Br)cc1 | MTT | >252.3 µM
CCC(C)Oc1cc(N)nc(Sc2ccccc2C)n1 | - | 99 µM
CCOC(=O)c1cn(Cc2ccncc2)c(Sc2cc(Cl)cc(Cl)c2)c1C1CCC1 | MTT | 80 µM
CCC(C)Oc1cc(=O)[nH]c(Sc2ccccc2C)n1 | - | 125 µM
CCNC(N)=NCCCNc1ccc2[nH]ccc2c1 | MTT | 52.67 µM
O=C1CSC(c2c(Cl)cccc2Cl)N1C1CCCCC1 | - | 5.25 µM